Compound potency records, mixed from different reports. Data source: NIAID ChemDB in PubChem.

Common to all: tests in culture; organism: HIV-1; endpoint: EC50

Lines come from different laboratories, so protocols vary. An empty or dashed field is not shown. ECn: concentration that inhibits the pathogen or its effect by n%.

| compound | read by | cell line | strain | value |
|---|---|---|---|---|
| C=CCOC[C@@H]1CC(NC(=O)[C@H](OCc2ccccc2)[C@H](O)[C@@H](O)[C@@H](OCc2ccccc2)C(=O)N[C@@H]2CO[C@H](COCC=C)C2)CO1 | cytopathic effect / XTT | MT-4 |  | >10 µM |
| Cc1cc(S(=O)(=O)n2cccc2)c(SCC(=O)n2cccc2)cc1Cl | cytopathic effect / XTT | CEM |  | >200 µM |
| O=c1[nH]c(=O)n([C@H]2C[C@H](O)[C@@H](CO)S2)cc1/C=C/Br | cytopathic effect / MTT | MT-4 | IIIB | >500 µM |
| CC(C)C1=C2[C@H]3CC[C@@H]4[C@@]5(C)CC[C@H](OC(=O)[C@H]6C[C@@H](C(=O)O)C6(C)C)C(C)(C)[C@@H]5CC[C@@]4(C)[C@]3(C)CC[C@@]2([C@@H](O)CNC(=O)c2ccc(Cl)cc2O[C@@H]2CCOC2)CC1=O | p24 / ELISA | MT-2 | 92HT599 | <1 µM |
| O=c1[nH]cnc2c1ncn2[C@@H]1C=C(F)[C@H](CO)O1 | RT activity | PBMC | LAI | >100 µM |
| Cc1cc(S(=O)(=O)n2cccc2)c(SCC#N)cc1Cl | cytopathic effect / XTT | CEM |  | >200 µM |
| CC(C)C(O)[C@@H]1CC(NC(=O)[C@H](OCc2ccccc2)[C@H](O)[C@@H](O)[C@@H](OCc2ccccc2)C(=O)N[C@@H]2CO[C@H](C(O)C(C)C)C2)CO1 | cytopathic effect / XTT | MT-4 |  | >10 µM |
| Cc1cncc(C(=O)NC(C)(C)CNC[C@H](O)[C@@]23CC[C@]4(C)[C@H](CC[C@@H]5[C@@]6(C)CC[C@H](OC(=O)[C@H]7C[C@@H](C(=O)O)C7(C)C)C(C)(C)[C@@H]6CC[C@]54C)C2=C(C(C)C)C(=O)C3)n1 | p24 / ELISA | MT-2 | 92HT599 | <1 µM |
| Nc1ncnc2c1ncn2[C@H]1CC[C@@H](CO)C1 | cytopathic effect | MT-4 | IIIB | >10 µM |
| CCCP(=O)(Cc1cccc(Nc2cc(-c3ccccc3OC)ncn2)c1)OCC | virus yield | MT-4 |  | 0.296 µM |
| O=C(O)CCNC(=O)CNC(=O)CNC(=O)CNC(=O)c1cc(C(=O)c2ccc3ccccc3c2)n2ccc(C(=O)c3ccccc3)cc12 | p24 / ELISA | H9 |  | 40.7 µM |
| CCP(=O)(O)Cc1cccc(Nc2cc(-c3ccccc3OCc3ccccc3)ncn2)c1 | virus yield | MT-4 |  | 0.163 µM |
| Cc1cn([C@H]2C[C@H](N=[N+]=[N-])[C@@H](CO)S2)c(=O)[nH]c1=O | cytopathic effect / MTT | MT-4 | IIIB | >100 µM |
| Nc1nc2c(ncn2[C@H]2C=C(F)[C@@H](CO)O2)c(=O)[nH]1 | RT activity | PBMC | LAI | >100 µM |
| CC1=C(C)[C@@H](O)[C@@H]2/C=C/C[C@H](C)C[C@H](C)C(=O)c3ccc([nH]3)[C@]23C(=O)N[C@@H](Cc2c[nH]c4ccccc24)C13 | p24 / ELISA / antigen | MT-4 | LAI | 0.61 µM |
| S=C(Cc1ccccn1)NCc1ccccc1Cl | XTT | CEM | WILD TYPE | >200 µM |
| O[C@@H]1CSSC[C@@H]1O | XTT | CEM + CEM-SS | RF | >20 µM |
| Cc1nc2c(N)ncnc2n1[C@H]1CC[C@@H](CO)C1 | cytopathic effect | MT-4 | IIIB | >10 µM |
| CC(C)C1=C2[C@H]3CC[C@@H]4[C@@]5(C)CC[C@H](OC(=O)[C@H]6C[C@@H](C(=O)O)C6(C)C)C(C)(C)[C@@H]5CC[C@@]4(C)[C@]3(C)CC[C@@]2([C@@H](O)CNCC(C)(C)NC(=O)CN2CCOCC2)CC1=O | p24 / ELISA | MT-2 | 92HT599 | <1 µM |
| Nc1nc2c(ncn2[C@@H]2C=C(F)[C@H](CO)O2)c(=O)[nH]1 | RT activity | PBMC | LAI | >100 µM |
| Cc1cn([C@H]2C[C@H](O)[C@@H](CO)S2)c(=O)[nH]c1=O | cytopathic effect / MTT | MT-4 | IIIB | >1 µM |
| Cc1cc(S(=O)(=O)n2cccc2)c(Sc2cc(Cl)c(C)cc2S(=O)(=O)n2cccc2)cc1Cl | cytopathic effect / XTT | CEM |  | >200 µM |
| CC(O)[C@@H]1CC(NC(=O)[C@H](OCc2ccccc2)[C@H](O)[C@@H](O)[C@@H](OCc2ccccc2)C(=O)N[C@@H]2CO[C@H](C(C)O)C2)CO1 | cytopathic effect / XTT | MT-4 |  | >10 µM |
| CCOP(=O)(CC)Cc1cccc(Nc2cc(-c3ccccc3OC)ncn2)c1 | virus yield | MT-4 |  | 0.197 µM |
| C/C1=C\[C@@H](C)C/C=C/[C@H]2[C@@H]3O[C@]3(C)[C@@H](C)C3[C@H](Cc4c[nH]c5ccccc45)NC(=O)[C@]32c2ccc([nH]2)C1=O | p24 / ELISA / antigen | MT-4 | LAI | 6.12 µM |
| CNc1nc2c(N)ncnc2n1[C@H]1CC[C@@H](CO)C1 | cytopathic effect | MT-4 | IIIB | >10 µM |
| O=C1CCC(=O)N1CCCCCCc1ccc2c3cc(CO)ccc3c3cc(CO)ccc3c2c1 | p24 | H9 | NL4-3 | 0.5 µM |
| CC(=O)O[C@H]1CSSC[C@H]1OC(C)=O | XTT | CEM + CEM-SS | RF | >200 µM |
| CCOP(=O)(CC)Cc1cccc(Nc2cc(-c3ccccc3OCc3ccccc3)ncn2)c1 | virus yield | MT-4 |  | 0.212 µM |
| C=C1[C@@H](C)C2[C@H](Cc3c[nH]c4ccccc34)NC(=O)[C@]23c2ccc([nH]2)C(=O)/C(C)=C/[C@@H](C)C/C=C/[C@H]3[C@@H]1O | p24 / ELISA / antigen | MT-4 | LAI | 4.92 µM |
| O=S1CCCCS1 | p24 | CEM + CEM-SS | RF | >26 µM |
| CCCCCCCCCCCCCCNC(=O)[C@H](N)CO[C@@H]1O[C@H](CO)[C@H](O)[C@H](O)[C@H]1O | RT activity | CEM + CEM-SS | LAI | >100 µM |
| Nc1ncnc2c1nc(I)n2[C@H]1CC[C@@H](CO)C1 | cytopathic effect | MT-4 | IIIB | >10 µM |
| C[C@H]1C/C=C/[C@H]2[C@@H]3O[C@]3(C)[C@@H](C)C3[C@H](Cc4c[nH]c5ccccc45)NC(=O)[C@]32c2ccc([nH]2)C(=O)[C@@H](C)C1 | p24 / ELISA / antigen | MT-4 | LAI | 0.31 µM |
| Cc1cc(S(=O)(=O)N2CCNC2=O)c(SCC(N)=O)cc1Cl | cytopathic effect / XTT | CEM |  | >200 µM |
| CCCCCCCCCCCCCCNC(=O)[C@H](CS[C@@H]1O[C@H](CO)[C@H](O)[C@H](O)[C@H]1O)NC(=O)CCCCCCCCCCCCC | RT activity | CEM + CEM-SS | LAI | >25 µM |
| [N-]=[N+]=NCCOCCOCCOc1cc(C2(C(F)(F)F)N=N2)ccc1C(=O)NCCOCCOCCNC(=O)c1cc(C(=O)c2ccc3ccccc3c2)n2ccc(C(=O)c3ccccc3)cc12 | p24 / ELISA | H9 |  | 27.4 µM |
| CC(C)C1=C2[C@H]3CC[C@@H]4[C@@]5(C)CC[C@H](OC(=O)[C@H]6C[C@@H](C(=O)O)C6(C)C)C(C)(C)[C@@H]5CC[C@@]4(C)[C@]3(C)CC[C@@]2([C@@H](O)CNCc2ccc(N)nc2)CC1=O | p24 / ELISA | MT-2 | 92HT599 | <1 µM |
| O=C(OCCOCCOCCNC(=O)c1cc(C(=O)c2ccc3ccccc3c2)n2ccc(C(=O)c3ccccc3)cc12)c1ccccc1 | p24 / ELISA | H9 |  | 56.5 µM |
| CC(C)C1=C2[C@H]3CC[C@@H]4[C@@]5(C)CC[C@H](OC(=O)[C@H]6C[C@@H](C(=O)O)C6(C)C)C(C)(C)[C@@H]5CC[C@@]4(C)[C@]3(C)CC[C@@]2([C@@H](O)CNC(=O)C(CN)NC(=O)c2ccc(Cl)cc2)CC1=O | p24 / ELISA | MT-2 | 92HT599 | <1 µM |
| CC(C)(C)NC(=O)[C@@H]1C[C@@H]2CCCC[C@@H]2CN1C[C@@H](O)[C@H](Cc1ccccc1)NC(=O)[C@@H]1CCCS(=O)(=O)C1 | p24 | MT-4 | IIIB | <0.2 µM |
| O=C(CCCCC1SC[C@@H]2NC(=O)N[C@H]12)NCCOCCOCCOc1cc(C2(C(F)(F)F)N=N2)ccc1C(=O)NCCOCCOCCNC(=O)c1cc(C(=O)c2ccc3ccccc3c2)n2ccc(C(=O)c3ccccc3)cc12 | p24 / ELISA | H9 |  | 34.6 µM |
| CCCc1cc(=O)oc2c3c(c4c(c12)OC(C)(C)CC4)O[C@@H](C)[C@H](C)[C@@H]3O | RT activity | PBMC | TEKI(SI) | 0.5 µM |
| CCCCCCCCCCCCCCNC(=O)[C@@H](N)CO[C@@H]1O[C@H](CO)[C@H](O)[C@H](O)[C@H]1NC(C)=O | RT activity | CEM + CEM-SS | LAI | >10 µM |
| O=S1C[C@@H](O)[C@H](O)CS1 | XTT | CEM + CEM-SS | RF | >59 µM |
| O=c1ccn([C@H]2C=C(F)[C@@H](CO)O2)c(=O)[nH]1 | RT activity | PBMC | LAI | >100 µM |
| CC(C)C1=C2[C@H]3CC[C@@H]4[C@@]5(C)CC[C@H](OC(=O)[C@H]6C[C@@H](C(=O)O)C6(C)C)C(C)(C)[C@@H]5CC[C@@]4(C)[C@]3(C)CC[C@@]2([C@@H](O)CNC[C@@H]2CCCCN2)CC1=O | p24 / ELISA | MT-2 | 92HT599 | <1 µM |
| O=c1cc(-c2cccc3c2Sc2ccccc2S3)oc(N2CCOCC2)c1 | cytopathic effect / XTT | C8166 | RT-K65R M184V | 4.9 µM |

Repeating the final 5 entries:

compound,read by,cell line,strain,value
CCCCCCCCCCCCCCNC(=O)[C@@H](N)CO[C@@H]1O[C@H](CO)[C@H](O)[C@H](O)[C@H]1NC(C)=O,RT activity,CEM + CEM-SS,LAI,>10 µM
O=S1C[C@@H](O)[C@H](O)CS1,XTT,CEM + CEM-SS,RF,>59 µM
O=c1ccn([C@H]2C=C(F)[C@@H](CO)O2)c(=O)[nH]1,RT activity,PBMC,LAI,>100 µM
CC(C)C1=C2[C@H]3CC[C@@H]4[C@@]5(C)CC[C@H](OC(=O)[C@H]6C[C@@H](C(=O)O)C6(C)C)C(C)(C)[C@@H]5CC[C@@]4(C)[C@]3(C)CC[C@@]2([C@@H](O)CNC[C@@H]2CCCCN2)CC1=O,p24 / ELISA,MT-2,92HT599,<1 µM
O=c1cc(-c2cccc3c2Sc2ccccc2S3)oc(N2CCOCC2)c1,cytopathic effect / XTT,C8166,RT-K65R M184V,4.9 µM